Test system: Lactococcus lactis MG1363
Experiment: Final OD600 of L. lactis cultures after 1 hour of inducer treatment
Format: cell-based
Conditions: BHI-Tris-glucose

Row | SMILES | final OD600 (aerated, 1 μM) | final OD600 (aerated, 10 μM) | final OD600 (non-aerated, 1 μM) | final OD600 (non-aerated, 10 μM)
1 | C=CC1=C(C)C2=[N+]3C1=Cc1c(C)c(C=C)c4[n]1[Ga-]31[n]3c(c(C)c(CCC(=O)O)c3=CC3=[N+]1C(=C4)C(C)=C3CCC(=O)O)=C2 (centres unmarked) [Ga-PPIX, gallium-protoporphyrin IX] | 0.7 | 0.7 | 1 | 1
2 | C=CC1=C(C)c2cc3[n-]c(cc4[n-]c(cc5nc(cc1n2)C(C)=C5C=C)c(C)c4CCC(=O)O)c(CCC(=O)O)c3C.[Cl-].[Fe+3] [hemin] | 0.7 | 0.7 | 1 | 0.6

From US20140120577A1, “Metalloporphyrin Inducible Promoter” (CHR HANSEN A/S, priority 2011, published 2014)
